Compound potency records, mixed from different reports. Data source: NIAID ChemDB in PubChem.

Shared fields: whole-cell or culture tests; agent: Rhinovirus; endpoint: inhibition

Two numbers with a dash give a range or band.

smiles | tested at | cell line | method | strain | value
CN(C)c1nc(C(F)(F)F)nc2c1ncn2Cc1ccc(Cl)c(NC=O)c1 | 8 µM | M-HELA | plaque count | Serotype 19 | 18%
Cc1cccc(C2=CCN(c3ccc(Cl)nn3)CC2)c1 | 0.375 µg/mL | - | - | 17 serotypes | 53%
CN(C)c1nc(C(F)(F)F)nc2c1ncn2Cc1ccccc1 | 8 µM | M-HELA | plaque count | Serotype 21 | 28%
O=C(O)c1ccc(S(=O)(=O)[O-])cc1C(=O)O | 10 µg/mL | Human embryonic lung cells | cytopathic effect | - | 0%
Cc1ccc(Cn2cnc3c(N(C)C)nc(C(F)(F)F)nc32)cc1 | 2.5 µM | M-HELA | plaque count | Serotype 8 | 41%
FC(F)(F)c1cccc(C2CCN(c3ccc(Br)nn3)C2)c1 | 0.01 µg/mL | - | - | 100 serotypes | 18%
Nc1c(S(=O)(=O)O)cc2cc(S(=O)(=O)O)cc(O)c2c1O | 10 µg/mL | Human embryonic lung cells | cytopathic effect | - | 0%
O=C(O)Cc1csc(/N=C2\SC[C@@H]3Cc4ccccc4CN23)n1 | 7 µg/mL | MRC-5 | cytopathic effect | Serotype 6 | 80–100%
Cc1ccc(N2CCC(c3cccc(C(F)(F)F)c3)C2)nn1 | 0.55 µg/mL | - | - | 17 serotypes | 53%
CN(C)c1nc(C(F)(F)F)nc2c1ncn2Cc1ccc(Br)cc1 | 8 µM | M-HELA | plaque count | Serotype 5 | 37%
N#Cc1cc([N+](=O)[O-])ccc1Oc1ccc(Cl)c(Cl)c1 | 3.125 µg/mL | VERO | - | TYPE 1A | 75%
FC(F)(F)c1cccc(C2CCN(c3ccc(Cl)nn3)C2)c1 | 0.25 µg/mL | - | - | 17 serotypes | 53%
Nc1ccc2c(O)cc(S(=O)(=O)[O-])cc2c1S(=O)(=O)[O-] | 5 µg/mL | Human embryonic lung cells | cytopathic effect | - | 55%
Cc1cccc(C2=CCN(c3ccc(Br)nn3)CC2)c1 | 1.126 µg/mL | - | - | 17 serotypes | 71%
O=S(=O)(O)c1cccc2c(O)cccc12 | 50 µg/mL | Human embryonic lung cells | cytopathic effect | - | 0%
Cc1ccccc1Cn1cnc2c(N(C)C)nc(C(F)(F)F)nc21 | 8 µM | M-HELA | plaque count | Serotype 13 | 33%
Cc1cc(-c2ccc(N=Nc3c(N)c(S(=O)(=O)O)cc4cc(S(=O)(=O)O)ccc34)c(C)c2)ccc1N=Nc1c(N)ccc2cc(S(=O)(=O)O)ccc12 | 50 µg/mL | Human amnion AV3 cells | cytopathic effect | - | 0%
CS(=O)(=O)c1ccc2c(c1)CCC(c1ccc(Cl)c(Cl)c1)O2 | 0.013 µg/mL | - | - | 100 serotypes | 18%

A second listing of 2 rows from above:

smiles,tested at,cell line,method,strain,value
N#Cc1cc([N+](=O)[O-])ccc1Oc1ccc(Cl)c(Cl)c1,3.125 µg/mL,VERO,-,TYPE 1A,75%
O=C(O)c1ccc(S(=O)(=O)[O-])cc1C(=O)O,10 µg/mL,Human embryonic lung cells,cytopathic effect,-,0%

An empty or dashed field is not shown. Percent inhibition refers to the dose given; in toxicity tests it is the harm to the cells. Conditions beyond the fields shown may differ between rows.